Source: patent US20230141962A1 (published 2023)

B1: phage clone #19 (scFv)
scFv: QSALTQPASVSGSPGQSITISCTGTSSDVGGYNYVSWYQQHPGKVPKLMIYEVSNRPSGVSNRFSGSKSGNTASLTISGLQAEDEADYYCSSYTSGDTLVFGGGTKVTVLGSRGGGGSGGGGSGGGGSLEMAELQLVESGGGVVQPGRSPRLSCAASGFTFSNYPMHWVRQAPGKGLEWVAVISYDGNHKYYADSLEGRFSISRDNSKNTLYLQMNSLTAADTAVYYCARGGGMGGLDSWGQGTLVTVSSTSGQAGQ
B2: phage clone #30 (scFv)
scFv: QSALTQPPSASGSPGQSVTISCTGTSSDVGGYDYVSWYQQHPGKAPKLMIYEVSKRPSGVSNRFSGSKSGNTASLTISGLQAEDEADYYCSSYTSSSTFPYVFGTGTKVTVLGSRGGGGSGGGGSGGGGSLEMAEVQLVESGGGLEQPGGSLRLSCAASGFTFSSYAMSWVRQAPGKGLEWVSAISASGNSTFYADSVKGRFTISRDNSKHTLDLQMNSLRADDTAVYYCARNSDVWGQGTLVTVSSTSGQAGQ
B3: phage clone #20 (scFv)
scFv: SYVLTQPPSASGTPGQRVTISCSGSSSNIGSNTVNWYQQLPGTAPKLLIYSNNQRPSGVPDRFSASKSGTSASLAISGFQSEDEADYYCAAWDDSLDGYVFGTGTKVTVLGSRGGGGSGGGGSGGGGSLEMAEVQLVQSGAEVKKPGESLKISCKGSGYSFPSYWIGWVRQMPGKGLEWMGIIYPGDSDTRYSPSFQGQVTISADKSISTAYLQWSSLKASDTAMYYCARGSYTYMGGSYDYWGQGTLVTVSSTSGQAGQ
B4: phage clone #13 (scFv)
scFv: QSVLTQPPSASGTPGQRVTISCSGSSSNIGSNYVYWYQQLPGTAPKLLIYRNNQRPSGVPDRFSGSKSGTSASLAISGLRSEDEADYYCAAWDDSLSGPNYVFGTGTKVTVLGSRGGGGSGGGGSGGGGSLEMAQVQLVQSGAEVKKPGSSVKVSCKASGGTFSSYAISWVRQAPGQGLEWMGWISGYNGNTNYAQKLQGRVTMTTDTSTSTAYMELRSLRSDDTAVYYCARTGWSKGEKVTTWGEWFYVDYWGQGTLVTVSSTSGQAGQ
B5: phage clone #15 (scFv)
scFv: QSVLTQPPSVSEAPRQRVTISCSGSSSNIGNNAVNWYQQLPGKAPKLLIYFNDVQSSGVSDRFSGSKSGTSASLAISGLQSEDEADYYCAAWDDSLNAVLFGGGTKLTVLGSRGGGGSGGGGSGGGGSLEMAEVQLVQSGAEVKKPGASVKVSCKASGYTFTGYYMHWVRQAPGQGLEWMGRINPNSGGTDYARKFRGRVTMTRDTSISTAYMELSRLTSDDTAMYYCARGYGDDWGQGTLVTVSSTSGQAGQ
B6: phage clone #09 (scFv)
scFv: NFMLTQPHSVSESPGKTVSISCTGSSGSIASNYVQWYQQRPGSAPTTVIYEDKERPSGVPNRFSGSIDRSSNSASLTISGLKTEDEADYYCQSYDDGNVVFGGGTKLTVLGSRGGGGSGGGGSGGGGSLEMAEVQLVESGAEVKKPGASVKVSCKASGYTFTSYGISWVRQAPGQGLEWMGWISAYNGNTNYAQKFQDRVTLTTDTSTNTAYMLLRSLRSDDTAVYYCARTWYSYHYDIWGQGTLVTVSSTSGQAGQ

target: T1, SARS-CoV-2 spike protein S1 subunit (WIV4) (SARS-CoV-2 (isolate 2019-nCoV, WIV4), UniProt P0DTC2 16-685); test: phage ELISA, specificity panel (FIG. 2)
T1 construct: also called SARS-CoV-2 S1 (WIV4); S1-HIS

Binder | binding result
B1 | binds
B2 | binds
B3 | binds
B4 | binds

target: T1, SARS-CoV-2 spike protein S1 subunit …; test: phage ELISA on coated SARS-CoV-2 S1

Binder | binding result
B5 | binds
B6 | binds
